## Library screen at single concentrations

The values are deposited in ChEMBL (CHEMBL3988442, “University of Dundee, Small-Polar-MMV Screening Library” (2021)).

Mtb glucose medium: 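Phenotypic screen: M. tuberculosis growth, glucose 7H9 medium, 3 days; the read-out is not stated. Compounds at 500 µM. Higher reads as more growth inhibition (inferred: compounds with an IC50 in retests scored well above the rest). About 18,000 compounds were tested under these conditions; 7.9% (about 1,400) showed 50% or more at least once.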
Mtb cholesterol medium: 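Whole-cell growth test on Mycobacterium tuberculosis, read after 4 days in a medium based on cholesterol and the lipid DPPC; the read-out is not stated. Tested at 500 µM. The record gives no direction; compounds that gave an IC50 in retests scored well above the rest, so higher reads as more growth inhibition. Size under these conditions: about 18,000 compounds, about 900 of them at 50% or above in at least one test.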

Results are given as percent effect. The record does not define 0% and 100%; most values in the screen are far below 50% and negative numbers occur (in some assays of this library far below -100). This is part of a subset picked to be rich in strong results. A dash means the value is not listed here; it may have been measured.

| structure | Mtb glucose medium | Mtb cholesterol medium |
|---|---|---|
| `O=C(Nc1ccn(-c2ccccc2)n1)C1CCCO1` (stereo not shown) | 33.83 | - |
| `COCC(O)CNc1ncnc2c1CCNCC2` (stereo not shown) | -9.969 | - |
| `CN1CCN(CC(O)CN(C)Cc2ccncc2)CC1` (stereo not shown) | 4.806 | - |
| `CCc1noc(Cn2nc(C(F)(F)F)ccc2=O)n1` | 50.55 | 50.16 |
| `Cc1noc(CN)n1` | 13.93 | - |
| `CC(C)CSCCSc1nnc(N)[nH]1` | 51.6 | 44.98 |
| `NC1CC(c2cc(NCC3(CO)CCC3)ncn2)C1` (stereo not shown) | - | 13.36 |
| `CCN1CCCC1CNC(=O)c1cccc(C)n1` (stereo not shown) | 56.08 | 1.458 |
| `CCCOc1ccc(CNC(=O)c2cc[nH]n2)cn1` | 63.02 | 53.37 |
| `OCc1cn(CC2CC2)nn1` | -5.302 | - |
| `c1csc(C2CNCCO2)c1` (stereo not shown) | - | 3.109 |
| `CC1(C)CN(c2cncc(C(N)=O)n2)C[C@]1(C)O` | -1.252 | - |
| `OC1(CN2CCCC2)CCCN(Cc2ccncc2)C1` (stereo not shown) | 11.8 | - |
| `CC(CNC(=O)N[C@@H](C)C(=O)N(C)C)Cc1cccs1` (stereo partly shown) | 79.91 | 65.62 |
| `CN(C)S(=O)(=O)c1csc(C(=O)N2CCOCC2)c1` | 9.045 | - |
| `COCCC(=O)NCC(OC)c1cccc(Cl)c1` (stereo not shown) | - | 3.871 |
| `O=C(COCC(F)(F)F)NCCn1ccnc1` | - | -2.862 |
| `CNC(=O)C1CCCCN1C(=O)Cn1nc(C)cc1N` (stereo not shown) | -0.2409 | - |
| `CSCC(=O)N(CCC#N)Cc1cccnc1` | - | 9.035 |
| `Cn1nccc1CCC(=O)N[C@@H]1COCC[C@H]1O` | 6.421 | - |
| `OCCCNC(c1ccccc1)c1ccccn1` (stereo not shown) | 51.75 | 53.99 |
| `Cc1cccc(CN2CCC(C(=O)N(C)C)CC2)c1` | - | 11.59 |
| `CC1CS(=O)(=O)CCN1C(=O)c1cccc2cc[nH]c12` (stereo not shown) | 10.61 | - |
| `NCc1cccc(-c2ccccn2)n1` | 101.7 | - |
| `O=S1(=O)CCCN1CCNc1ncc(Cl)cc1Cl` | 61.54 | - |
| `O=C(CO)NC1CCN(Cc2cc(Cl)cc(Cl)c2)CC1` | 4.157 | -0.05815 |
| `O=C(CC1CCCC1)NCC1CCCCC(=O)N1` (stereo not shown) | - | -14.16 |
| `Cc1noc(CN2CCCCC2CCNS(C)(=O)=O)n1` (stereo not shown) | - | -12.07 |
| `CS(=O)(=O)N1CCN(Cc2cccc(Br)c2)CC1` | 4.59 | - |
| `C=C(C)CS(=O)(=O)NC1CCN(c2ccccn2)C1` (stereo not shown) | 47.85 | - |
| `COc1ccc(CNCCSc2nnnn2C)cc1` | 23.3 | 31.98 |
| `CNCC1CCCN(C(=O)c2cccc(C)c2F)C1` (stereo not shown) | - | -1.872 |
| `COC[C@H](O)CNC(C)c1ccc(Cl)s1` (stereo partly shown) | 4.635 | -7.179 |
| `Cc1c(C(=O)N2CCNC(=O)C2)oc2ccc(Cl)cc12` | 47.69 | 30.11 |
| `Cc1cnc(C(=O)NCc2ccc(C)n2C)cn1` | 44.34 | - |
| `CCc1nc2c(c(NC)n1)CCNCC2` | - | -5.978 |
| `CC(C)CC(C)N(C)CC(=O)NC(N)=O` (stereo not shown) | -6.861 | - |
| `Cc1ccc(C2NCCNC2=O)cc1` (stereo not shown) | - | -19.29 |
| `N#Cc1cnc(NCC2(O)CCC2)cn1` | 5.948 | - |
| `COCC(C)Nc1cccc(CS(C)(=O)=O)c1` (stereo not shown) | - | 0.4683 |
| `CNCC(=O)N1CCCC(OCc2ccccn2)C1` (stereo not shown) | -3.249 | - |
| `COc1ccc(C(C)NCCO)c(Br)c1` (stereo not shown) | - | -2.297 |
| `O=C(NCCSC(F)(F)F)Nc1cccc2[nH]nnc12` | 82.55 | 73.95 |
| `NC(=O)c1ccc(CNC2CCCc3sccc32)o1` (stereo not shown) | 23.71 | - |
| `c1cnc2c(c1)OCCN2` | -4.015 | - |
| `CC(=O)NCCCNCc1cccc(Cl)c1F` | 41.01 | 19.07 |
| `C[C@@H]1NCC[C@@H]1NC(=O)OC(C)(C)C` | -0.212 | - |
| `CCc1ncc(C(=O)NCCNc2cnccn2)s1` | 24.49 | - |

Repeated from the top, 4 entries:

structure	Mtb glucose medium	Mtb cholesterol medium
O=C(Nc1ccn(-c2ccccc2)n1)C1CCCO1 (stereo not shown)	33.83	-
COCC(O)CNc1ncnc2c1CCNCC2 (stereo not shown)	-9.969	-
CN1CCN(CC(O)CN(C)Cc2ccncc2)CC1 (stereo not shown)	4.806	-
CCc1noc(Cn2nc(C(F)(F)F)ccc2=O)n1	50.55	50.16